Molecules are shown by their SMILES.

The values that follow come from publication PMC5923120, “Acylhydrazones as Antifungal Agents Targeting the Synthesis of Fungal Sphingolipids” (Antimicrobial Agents and Chemotherapy, 2018).

This series has as its system A549. The series is described as follows: In vitro toxicity (MTT), A549. The series is classed as cell-based, human. Conditions: ratio of IC50 against mammalian cell line and MIC80 against C. neoformans. How it is done: The murine macrophage cell line J774 and human cancer cell lines A549 and HepG2 were maintained in DMEM containing 10% fetal bovine serum (FBS) and 1% penicillin-streptomycin. At passage 7, 10^5 cells/well in DMEM containing 10% FBS were transferred into 96-well plates and cultured for 14 h for the cells to adhere to the wells. The compounds were added to the cells at concentrations ranging from 0.03 to 128 μg/ml. The wells without the compound served as controls. […] After 24 or 48 h, the supernatant was removed and 50 μl of 5-mg/ml 3-(4,5-dimethylthiazol-2-yl)-2,5-diphenyltetrazoliumbromide (MTT) solution in phosphate-buffered saline (PBS) was added to each well. The plates were incubated for an additional 4 h. The formazan crystal formed inside the cell was dissolved by adding 50 μl of dimethyl sulfoxide (DMSO). The optical density was measured at 570 nm.

Take `O=C(N/N=C/c1cc(Br)ccc1O)c1cc(Br)cc(Br)c1O` [D17]: the “SI of A549 or HepG2” value was found to be 32.

In the case of `O=C(N/N=C/c1cc(Br)ccc1O)c1cccc(Br)c1` [D2], the “SI of A549 or HepG2” value came to 64.
